# In publication PMC9670689 (ACS Omega, 2022):
# Test system: highly pathogenic avian influenza A/chicken/Egypt/N12640A/2016(H5N1)
compound,measurement,value
CCC(CC)O[C@@H]1C=C(C(=O)O)C[C@H](N)[C@H]1NC(C)=O [oseltamivir carboxylate],SI (CC50/IC50),"> 11,561"
